Pooled drug test results. Numbers come from NIAID ChemDB, via PubChem.

Shared fields: tests in culture; agent: Mycobacterium tuberculosis

A number after MIC or MFC names an inhibition level or a share of isolates.

structure	dose	strain or isolate	changes	read by	cell line	measure	result
O=[N+]([O-])c1ccnc(NC(=S)Nc2ncc(C3CCC3)o2)c1		MDR clinical isolate		agar		MIC	0.3 µM
CCCCCCCCCCCCCC[C@H](O)C[C@H](O)C[C@H](O)C[C@H]1CC=CC(=O)O1		H37Rv				MIC	29.4 µg/mL
FC(F)(F)c1ccccc1NC(=S)Nc1ncc(C2CCC2)o1		MDR clinical isolate		agar		MIC	0.14 µM
COc1cc2oc(-c3ccc(O)cc3O)c(CC=C(C)C)c(=O)c2c(O)c1/C=C/C(C)C		PZA-R				MIC	>12.5 µg/mL
Cc1cc(O)c2c(c1)[C@H](O)CCC2=O		H37Rv ATCC 27294 (drug-susceptible)				MIC	100 µg/mL
CC(=O)c1c(O)c(C)c(O)c2c1OC1=CC(=O)C(C(C)=O)C(=O)C12C		EMB-R				MIC	12.5 µg/mL
C=C[C@]1(C)C=C2CC[C@@H]3[C@](C)(CCC[C@@]3(C)C(=O)O)[C@H]2CC1						MIC	15 µg/mL
C/C=C/C1=CC=C/C(=C2\C(=O)CNC2=O)O1		H37Rv	p-aminosalicylic acid-resistant	resazurin / visual reading		MIC	3.1 µg/mL
Cc1nonc1C(=O)NN	12.5 µg/mL	H37Rv		BACTEC		inhibition	6%
C/C(=N\NC(=O)Cn1nc(N2CCN(c3ccccc3)CC2)ccc1=O)c1ccc(Br)cc1		H37Rv		agar		MIC	5 µg/mL
CCn1cc(C(=O)O)c(=O)c2cc(F)c(N3CCN(CC(=O)c4ccco4)CC3)cc21		H37Rv				MIC	>6.25 µg/mL
CC1(C)N=CN=C(N)N1c1ccc(CCC(=O)Nc2ccc(S(=O)(=O)F)cc2)c(Cl)c1.CCS(=O)(=O)O		H37Rv		BACTEC		MIC bound	≤12.5 µg/mL
CCCCCCCCCCCCCCC[C@H]1CC=CC(=O)O1	128 µg/mL	H37Rv		fluorescence		inhibition	63.7%
CCn1cc(C(=O)O)c(=O)c2cc(F)c(N3CCN(C/C(=N/OCc4ccccc4)c4cccs4)CC3)cc21		H37Rv				MIC	>6.25 µg/mL
Clc1ccc(Cl)c(N/N=C/c2csc3ccccc23)c1	6.25 µg/mL	H37Rv (ATCC 27294)		resazurin		inhibition	96%
O=C(O)c1ccc(N2C(=O)C(Cl)C2c2ccc(F)cc2)cc1O		H37Rv		resazurin		MIC90	<6.25 µg/mL
C/C(=C\c1cn(Cc2ccccc2)c2ccccc12)[N+](=O)[O-]	6.25 µg/mL	H37Rv (ATCC 27294)		resazurin		inhibition	30%
C[C@@H]1CC[C@@H]([C@@H](C)[C@H]2[C@@H](O)C[C@H]3[C@@H]4CC[C@H]5C[C@@H](O)CC[C@]5(C)[C@H]4CC[C@]23C)NC1		H37Rv		BACTEC		MIC bound	>128 µg/mL
CCNc1c(C)c2c3c4c1C(=O)C(=C(/C=N/N1CCN(C)CC1)C4O)NC(=O)/C(C)=C\C=C\[C@H](C)[C@H](O)[C@@H](C)[C@@H](O)[C@@H](C)[C@H](OC(C)=O)[C@H](C)[C@@H](OC)/C=C/O[C@@](C)(O2)C3=O				low oxygen		MIC90	>18.8 µM
C[C@@H]1[C@H](O)[C@@H](C)/C=C/C=C/C=C/C=C/C=C/C=C/C=C/[C@H](O[C@@H]2O[C@H](C)[C@@H](O)[C@H](N)[C@@H]2O)C[C@@H]2O[C@](O)(C[C@@H](O)C[C@@H](O)[C@H](O)CC[C@@H](O)C[C@@H](O)CC(=O)O[C@H]1C)C[C@H](O)[C@H]2C(=O)O		H37Ra		resazurin / visual reading		MIC	50 µg/mL
CCc1oc2ccccc2c1C(=O)c1ccc(O)cc1	12.5 µg/mL	H37Rv		BACTEC		inhibition	11%
CNn1cc(C(=O)O)c(=O)c2cc(F)c(N3CCN(C)CC3)cc21		19 strains				MIC90	12.5 µg/mL
CCCCCCC/C=C\C(O)C#CC#CC(O)CC		Erdman		resazurin		MIC90	49.5 µg/mL
CCn1cc(C(=O)O)c(=O)c2cc(F)c(N3CCN(C/C(=N/OCc4ccccc4)c4ccco4)CC3)cc21	6.25 µg/mL	H37Rv				inhibition	74%
OC(CCl)CN1CCN(CC(O)CCl)CC1		H37Rv		BACTEC		MIC bound	>12.8 µg/mL
Cc1[nH]c2ccccc2c1/C=N/N(C)C	6.25 µg/mL	H37Rv (ATCC 27294)		resazurin		inhibition	0%
O=C(CC1Sc2ccccc2NC1=O)NNc1cccc(Cl)c1Cl		H37Rv		BACTEC		MIC bound	>12.5 µg/mL
COc1c(N2CCNC(C)C2)c(F)cc2c(=O)c(C(=O)O)cn(C3CC3)c12		5 isolates drug-resistant				MIC50	0.031 µg/mL
COc1ccc(-c2coc3c4c(c5c(c3c2=O)OC(C)(C)CC5)OC(C)(C)C=C4)cc1OC	12.5 µg/mL	H37Rv		BACTEC		inhibition	58%
C/C(=C\c1c(C)[nH]c2ccccc12)[N+](=O)[O-]	6.25 µg/mL	H37Rv (ATCC 27294)		resazurin	VERO	inhibition	91%
COC(=O)c1ccc(C(=O)OC)c2nc3cc(C)c(C)cc3nc12		H37Rv		BACTEC		MIC bound	>12.5 µg/mL
O=C1/C(=C/c2ccccc2[N+](=O)[O-])SC(=S)N1CCCNc1ccnc2cc(Cl)ccc12		H37Rv		agar		MIC	6.25 µM
COC(=O)N1N=C(c2ccccc2)C(C(=O)OC)(C(=O)OC)c2ccccc21	12.5 µg/mL	H37Rv		BACTEC		inhibition	-10%
C=CCNc1c(C)c2c3c4c1C(=O)C(=C(/C=N/N1CCN(C)CC1)C4=O)NC(=O)/C(C)=C\C=C\[C@H](C)[C@H](O)[C@@H](C)[C@@H](O)[C@@H](C)[C@H](OC(C)=O)[C@H](C)[C@@H](OC)/C=C/O[C@@](C)(O2)C3=O				resazurin		MIC90	>4.7 µM
CCCCCCCCNCc1ccc(O)c(OC)c1		H37Ra		resazurin		EC50	144 µM
O=C(O)c1ccc(N2C(=O)CSC2c2ccc(F)cc2)cc1O		H37Rv		resazurin		MIC90	<6.25 µg/mL
N#CC1(C#N)NC(c2cccnc2)C(C#N)(C#N)NC1c1cccnc1		H37Rv		resazurin		MIC bound	>6.25 µg/mL
NNC(=S)Nc1ccc(F)cc1		H37Rv		resazurin		MIC90	<6.25 µg/mL
C/C(=N\NC(=O)Cn1nc(N2CCN(c3ccc(Cl)cc3)CC2)ccc1=O)c1ccc(Br)cc1		H37Rv		agar		MIC	40 µg/mL
CC1=NN(C(=O)c2ccncc2)C(=O)C1N=Nc1ccc2ccccc2c1	12.8 µg/mL	H37Rv		BACTEC		inhibition	15%
CN[C@H](CC(C)C)C(=O)N[C@H]1C(=O)N[C@@H](CC(N)=O)C(=O)N[C@H]2C(=O)N[C@H]3C(=O)N[C@H](C(=O)N[C@H](C(=O)O)c4cc(O)cc(O)c4-c4cc3ccc4O)[C@H](O)c3ccc(c(Cl)c3)Oc3cc2cc(c3O[C@@H]2O[C@H](CO)[C@@H](O)[C@H](O)[C@H]2O[C@H]2C[C@](C)(N)[C@H](O)[C@H](C)O2)Oc2ccc(cc2Cl)[C@H]1O		24 strains				MIC50	25 µg/mL
Cc1n[nH]c(=O)n1-c1cccnc1		H37Rv		resazurin		MIC bound	>6.25 µg/mL
NNC(=O)c1ccncc1		ATCC 27294		resazurin		MIC	<0.06 µg/mL
Oc1ccccc1NC(=S)Nc1ncc(C2CCC2)o1		H37Rv		agar		MIC	10.81 µM
Cc1c(F)cc2c(=O)c(C(=O)O)cn3c2c1CCC3C		100 strains				MIC90	3.2 µg/mL
CC1(C)CCc2c(c3ccccc3c3nc(-c4ccccc4C#N)oc23)O1		ATCC 35338		resazurin		MIC	17.6 µg/mL
O=[N+]([O-])c1cccc(C=NCCN2CCN(CCN=Nc3cccc([N+](=O)[O-])c3O)C2c2cccc([N+](=O)[O-])c2O)c1O		H37Rv		resazurin		MIC bound	>6.25 µg/mL
S=C(Nc1ccc(Cl)cc1)Nc1ncc(C2CCC2)o1		MDR clinical isolate		agar		MIC	1.23 µM
C=CCNc1c(C)c2c3c4c1C(=O)C(=C(/C=N/N1CCN(C)CC1)C4O)NC(=O)/C(C)=C\C=C\[C@H](C)[C@H](O)[C@@H](C)[C@@H](O)[C@@H](C)[C@H](OC(C)=O)[C@H](C)[C@@H](OC)/C=C/O[C@@](C)(O2)C3=O				resazurin		MIC90	>4.6 µM
O=C1C=CC(=CC=C2C=CN(CCCCCCO)C=C2)C=C1	12.5 µg/mL	H37Rv		BACTEC		inhibition	12%
CN(C)c1ccc(NC(=S)Nc2ncc(C3CCC3)o2)cc1		H37Rv		agar		MIC	5.56 µM
CCCCCCCCCCCCCCC[C@H](O)C[C@H](O)C[C@H](O)C[C@H]1CC=CC(=O)O1	128 µg/mL	H37Rv		fluorescence	VERO	inhibition	81.7%
O=C(O)c1ccc(NCN2CCCCC2)cc1O		H37Rv		resazurin		MIC90	<6.25 µg/mL
CCCCCCCCc1ccc(NCc2ccc(O)c(OC)c2)cc1		H37Ra		resazurin		EC50	70.5 µM
NNC(=O)c1ccncc1		H37Rv (ATCC 27294)		resazurin		MIC	0.05 µM
C[n+]1cc2c(cn3c4ccccc4ccc23)c2ccccc21.[I-]		H37Rv	p-aminosalicylic acid-resistant	resazurin / visual reading		MIC	1.5 µg/mL
Cc1ccccc1-c1nc2c3c(c4ccccc4c2[nH]1)OC(C)(C)CC3		ATCC 4.5		resazurin		MIC	4.5 µg/mL
CCC1Cn2cc([N+](=O)[O-])nc2O1		H37Rv				MIC	0.06 µg/mL
CCCCCCCCCCCCCCC[C@H](O)CCCCCC[C@H]1CC=CC(=O)O1	128 µg/mL	H37Rv		fluorescence		inhibition	48.1%
COc1ccc(/C=N/NC(=O)c2c[nH]c3cc(Cl)ccc3c2=O)cc1OC		RCMB 010126		resazurin		MIC	24.96 µg/mL
C/C(=N\NC(=O)Cn1nc(N2CCN(c3ccc(F)cc3)CC2)ccc1=O)c1ccc(Br)cc1		H37Rv		agar		MIC	5 µg/mL
NC(=O)N(CCCO)/N=C/c1ccc([N+](=O)[O-])o1		H37Rv		BACTEC		MIC	≥12.5 µg/mL
NNC(=O)c1ccncc1		H37Rv		agar		MIC	0.217 µM
O=C1CCC2OC3CCC(=O)N3CN12		H37Rv		resazurin		MIC bound	>6.25 µg/mL
O[C@H](c1cc(C(F)(F)F)nc2c(C(F)(F)F)cccc12)[C@@H]1CCCCN1		H37Rv				MIC	8–16 µg/mL
O=C(N/N=C/c1ccc(F)cc1)c1c[nH]c2ccc(Cl)cc2c1=O		RCMB 010126		resazurin		MIC	12.48 µg/mL
O=c1c2cc([N+](=O)[O-])cnc2sn1-c1ccc(Oc2ccccc2)cc1		H37Rv		resazurin		MIC bound	<6.25 µg/mL
CCCCCCC/C=C\C(O)C#CC#CC(O)CCOC		H37Rv		resazurin		MIC90	>60 µg/mL
CCn1cc(C(=O)O)c(=O)c2cc(F)c(N3CCN(CC(=O)c4cccs4)CC3)cc21		H37Rv				MIC	>6.25 µg/mL
CCOC(=O)n1c(=O)nc2c3c(ncn21)Oc1c(c(-c2ccccc2)nn1-c1ccccc1)C3c1ccc(Cl)cc1		H37Rv		resazurin		MIC bound	>6.25 µg/mL
CO[C@@H]1C[C@@H](C[C@H]2CC[C@H](C)[C@H]([C@@H](C)C(=O)O)O2)O[C@]2(O[C@](C)([C@H]3CC[C@@](C)([C@@H]4O[C@@H]([C@H]5O[C@@](O)(CO)[C@H](C)C[C@@H]5C)C[C@@H]4C)O3)C[C@H]2C)[C@@H]1C		H37Rv		resazurin		MIC	1.25 µg/mL
O=C(Nc1ccc(C(=O)O)c(O)c1)c1ccc(F)cc1		H37Rv		resazurin		MIC90	<6.25 µg/mL
CCCCCCCCCCCCCCC[C@H](O)CC[C@@H](O)CCC[C@H]1CC=CC(=O)O1		H37Rv				MIC	61.47 µg/mL
Cc1[nH]c2ccccc2c1/C=N/Nc1ccccc1	6.25 µg/mL	H37Rv (ATCC 27294)		resazurin	VERO	inhibition	91%
CCCCCCCCCNCc1ccc(O)c(OC)c1		H37Ra		resazurin		EC50	31.7 µM
COc1c(N2CCNC(C)C2)c(F)cc2c(=O)c(C(=O)O)cn(C3CC3)c12		10 isolates ciprofloxacin-resistant				MIC90	3.13 µg/mL
CCCCc1ccc(NCc2ccc(O)c(OC)c2)cc1		H37Ra		resazurin		MIC90	>200 µM
C/C(=N\NC(=O)Cn1nc(N2CCN(c3ccccc3)CC2)ccc1=O)c1ccc(F)cc1		H37Rv		agar		MIC	20 µg/mL

Repeating the final 11 entries:

structure | dose | strain or isolate | changes | read by | cell line | measure | result
CCCCCCC/C=C\C(O)C#CC#CC(O)CCOC |  | H37Rv |  | resazurin |  | MIC90 | >60 µg/mL
CCn1cc(C(=O)O)c(=O)c2cc(F)c(N3CCN(CC(=O)c4cccs4)CC3)cc21 |  | H37Rv |  |  |  | MIC | >6.25 µg/mL
CCOC(=O)n1c(=O)nc2c3c(ncn21)Oc1c(c(-c2ccccc2)nn1-c1ccccc1)C3c1ccc(Cl)cc1 |  | H37Rv |  | resazurin |  | MIC bound | >6.25 µg/mL
CO[C@@H]1C[C@@H](C[C@H]2CC[C@H](C)[C@H]([C@@H](C)C(=O)O)O2)O[C@]2(O[C@](C)([C@H]3CC[C@@](C)([C@@H]4O[C@@H]([C@H]5O[C@@](O)(CO)[C@H](C)C[C@@H]5C)C[C@@H]4C)O3)C[C@H]2C)[C@@H]1C |  | H37Rv |  | resazurin |  | MIC | 1.25 µg/mL
O=C(Nc1ccc(C(=O)O)c(O)c1)c1ccc(F)cc1 |  | H37Rv |  | resazurin |  | MIC90 | <6.25 µg/mL
CCCCCCCCCCCCCCC[C@H](O)CC[C@@H](O)CCC[C@H]1CC=CC(=O)O1 |  | H37Rv |  |  |  | MIC | 61.47 µg/mL
Cc1[nH]c2ccccc2c1/C=N/Nc1ccccc1 | 6.25 µg/mL | H37Rv (ATCC 27294) |  | resazurin | VERO | inhibition | 91%
CCCCCCCCCNCc1ccc(O)c(OC)c1 |  | H37Ra |  | resazurin |  | EC50 | 31.7 µM
COc1c(N2CCNC(C)C2)c(F)cc2c(=O)c(C(=O)O)cn(C3CC3)c12 |  | 10 isolates ciprofloxacin-resistant |  |  |  | MIC90 | 3.13 µg/mL
CCCCc1ccc(NCc2ccc(O)c(OC)c2)cc1 |  | H37Ra |  | resazurin |  | MIC90 | >200 µM
C/C(=N\NC(=O)Cn1nc(N2CCN(c3ccccc3)CC2)ccc1=O)c1ccc(F)cc1 |  | H37Rv |  | agar |  | MIC | 20 µg/mL

a–b is a range or a potency band. Inhibition is in % at the dose shown (toxicity tests: loss of growth or viability). An empty or dashed field is not shown. ECn is the concentration giving n% inhibition of infection, replication or growth. MIC bound comes from a single tested concentration. Lines come from different laboratories, so protocols vary.